For assay [1], the system named is replicon HCV RNA. The assay is described as follows: HCV replicon assay (clone not specified). The settings on record: for reduction in replicon HCV RNA up to 7 days: treatment with 5 and 25 μM, FIG. 1B.
Assay [2] deals with HCV-WT 1b replicon. The assay is described as follows: microbe, parasite or virus in culture. The conditions noted are these: Hepatitis C virus.
Assay [3] has as its system 21-5 (full-length) replicon. The assay is described as follows: microbe, parasite or virus in culture. The settings on record: Hepatitis C virus.
Assay [4] has as its system 9-13 (subgenomic) replicon. The assay is described as follows: microbe, parasite or virus in culture. The conditions noted are these: Hepatitis C virus.

SMILES strings stand for the structures.

Regarding `C[C@@]1(F)[C@H](O)[C@@H](CO)O[C@H]1n1ccc(N)nc1=O`, the EC90 in assay [1] (Hepatitis C virus, read-out: average EC90 value, corrected for cellular toxicity, rRNA reduction subtracted from antiviral values) was around 2.5 µM; in assay [2], 4.6 ± 2 µM; in assay [3], 1.6 ± 0.7 µM; in assay [4], 4.6 ± 2.3 µM. The “reduction in replicon HCV RNA up to 7 days” value is given as “prolonged reduction” in assay [1] and “significantly reduced” in assay [1] (listed as β-D-(2′R)-2′-deoxy-2′-fluoro-2′-C-methylcytidine).
Regarding `C[C@@]1(O)[C@H](O)[C@@H](CO)O[C@H]1n1cnc2c(N)ncnc21` [2′-C-methyladenosine], the EC90 was found to be 2.1 ± 0.27 µM in assay [2], 0.6 µM in assay [3] and 0.7 µM in assay [4].
The corresponding values for `C[C@@]1(O)[C@H](O)[C@@H](CO)O[C@H]1n1ccc(N)nc1=O` [2′-C-methylcytidine] are 21.9 ± 4.3 µM, 6.6 µM and 13 µM.

For the origin of these results see patent US10287311B2, “Modified fluorinated nucleoside analogues” (priority 2003, dated 2019).
